Reference: PubChem BioAssay AID504761 (Drosophila RNAi Screening Center, 2011)
In all, the deposit lists about 22,000 reagents; this is a random part of those that have a named target and a result. In the full data, 116 (0.52%) got an active call. 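Calls depend on retest data that are not deposited; infection was ranked per plate without normalising between plates; the unit of the infection score is not given.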 Further read-outs or replicates are left out here. No sequences are given here. Not stated in the record: the amount of reagent, the time to read-out.

Aim: 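Genome-wide fly cell screen for genes dengue virus requires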 (primary screen)
System: D.Mel-2 cells from Drosophila
Reagents: long dsRNA against Drosophila genes
Treatment: infection with dengue virus type 2; dose and infection time not stated
Detection: 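Per well on two replicate plates, imaging gave the percent of cells positive for viral envelope protein, ranked by infection, and a nuclear count of cells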
Scale: infection score: higher = more virus-infected cells
Hit rule: 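Low infection ranks in the two replicates (chance level up to 0.065) followed by a retest with a 1.5-fold or larger significant decrease, p below 0.05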
Meaning of the calls: active = confirmed: knock-down lowers infection; inactive = not picked or not confirmed

With E2f2 (GeneID 35381) [DRSC03320], how do the results read?
infection score, replicate 1: 17.7; activity call: inactive

What is on record for Mp20 (GeneID 36468) [DRSC07474]?
infection score, replicate 1: 18.1; activity call: inactive

What did the screen give for Mp20 (GeneID 36468) [DRSC29793]?
infection score, replicate 1: 4.9; activity call: inactive

Which result is listed for Dh44-R1 (GeneID 36601) [DRSC07172]?
infection score, replicate 1: 6.08; activity call: inactive

With Dh44-R1 (GeneID 36601) [DRSC28984], how do the results read?
infection score, replicate 1: 16.5; activity call: inactive

How did the screen score Phb2 (GeneID 46038) [DRSC06512]?
infection score, replicate 1: 17.9; activity call: inactive

Records listed so far whose target name begins with D or d (2):
Dh44-R1 (GeneID 36601) [DRSC07172]: infection score, replicate 1 = 6.08; activity call = inactive
Dh44-R1 (GeneID 36601) [DRSC28984]: infection score, replicate 1 = 16.5; activity call = inactive

Continued:
What is on record for CG3909 (GeneID 41226) [DRSC14150]?
infection score, replicate 1: 5.21; activity call: inactive

With Mal-A5 (GeneID 35828) [DRSC07232], what was measured?
infection score, replicate 1: 1.51; activity call: inactive

Which result is listed for Mal-A5 (GeneID 35828) [DRSC29506]?
infection score, replicate 1: 7.23; activity call: inactive

What is on record for Bub3 (GeneID 43490) [DRSC14168]?
infection score, replicate 1: 10.3; activity call: inactive

For Bub3 (GeneID 43490) [DRSC28779], what does the deposit list?
infection score, replicate 1: 2.9; activity call: inactive

With lbe (GeneID 42542) [DRSC16985], what does the deposit list?
infection score, replicate 1: 2.11; activity call: inactive

For lbe (GeneID 42542) [DRSC23597], how do the results read?
infection score, replicate 1: 0.9; activity call: inactive
